Results taken from PMC6211226, “Intracellular Signaling by the comRS System in Streptococcus mutans Genetic Competence” (mSphere, 2018).
The exact form of at least one protein or probe is not confirmed. The comparison behind a weaker result is the experiment's own reference, which may not be listed here. Protein sequences can lack the tags named with them.

Biological target: T1, ComR (Streptococcus mutans UA159) (UniProt Q8DWI6)
T1 sequence (looked up): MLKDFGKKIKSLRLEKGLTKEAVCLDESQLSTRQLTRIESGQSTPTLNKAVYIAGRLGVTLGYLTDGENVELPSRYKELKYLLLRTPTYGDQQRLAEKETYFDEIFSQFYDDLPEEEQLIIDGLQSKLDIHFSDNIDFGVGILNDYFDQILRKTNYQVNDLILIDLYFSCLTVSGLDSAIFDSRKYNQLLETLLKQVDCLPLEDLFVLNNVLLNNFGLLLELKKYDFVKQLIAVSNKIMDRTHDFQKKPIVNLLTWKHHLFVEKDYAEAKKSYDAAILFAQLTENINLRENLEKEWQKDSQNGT
Experiment: fluorescence polarization
Details: no peptide; Previously described reaction buffer (ref 53; composition not given) + 1 mM EDTA, 0.05 mg/ml salmon DNA, 1 nM probe, 37 C, 20 min; ComR dialyzed into PBS pH 7.4; recombinant protein; residues 1-304; label: 5' Bodipy FL-X; folded or branched DNA

**Q.** Does “ATGGGACATTTATGTCCTGTCCCCCACAGGACATAAATGTCCCAT [PcomX stem-loop probe]” bind?
**A.** binds more weakly
